Target: recombinant staphylococcal enterotoxin B (SEB), mature protein with N-terminal His6-tag (Staphylococcus aureus COL), P01552

B1: pB2-4, immobilized for Surface Plasmon Resonance (peptide)
chain: EKFDSVHSKYM
  Kd: 2320 nM
  koff: 0.000958 s⁻¹
  kon: 413 M⁻¹ s⁻¹

Reference: patent US20200148741A1
